Measured values from several laboratories, pooled; numbers as filed in NIAID ChemDB.

Shared fields: tests in culture; agent: Mycobacterium tuberculosis

Two numbers with a dash give a range or band. Percent inhibition refers to the dose given; in toxicity tests it is the harm to the cells. MIC50, MIC90 and the like: level of inhibition, or share of isolates inhibited. MIC bound comes from a single tested concentration. Lines come from different laboratories, so protocols vary. An empty or dashed field is not shown.

smiles,dose,strain or isolate,method,read-out,value
COc1cc2c(c3oc(=O)c4c(c13)CCC4=O)C1C=COC1O2,,,,MIC90,64 µg/mL
COc1cc(C(=O)C/C(CCC(=O)Nc2ccc(Cl)cc2C)=N/NC(=O)C(N)=O)ccc1O,,H37Rv,BACTEC,MIC bound,>12.5 µg/mL
CC(=O)CCC(=O)O,,H37Rv,,MIC,>100 µg/mL
CN1CCN(CCCN2c3ccccc3Sc3ccc(C(F)(F)F)cc32)CC1,,,,MIC50,4 µg/mL
COc1ccc(C(N)=S)cc1,,H37Rv (INH-resistant),,MIC,32 µM
CC(=O)C1(C)C(=O)N(c2ccc(Cl)cc2)C(=O)N1c1ccc(Cl)cc1,12.5 µg/mL,H37Rv,BACTEC,inhibition,43%
CC(=O)c1c(O)ccc2c(C)cc(=O)oc12,,H37Rv,,MIC,>100 µg/mL
COc1ccc(-c2c(C)c(C(=O)O)nc(-c3ccc4c(O)c(OC)c5c(c4n3)=NC(C)(C)N=5)c2N)c(O)c1OC,12.8 µg/mL,H37Rv,BACTEC,inhibition,16%
COc1ccc(-c2cc(-c3ccc4oc(=O)c(-c5ccccc5)c(C)c4c3)nc3c2Cc2ccccc2-3)cc1,250 µg/mL,H37Rv,agar / visual reading,inhibition,35%
Cc1ccc(Nc2cc(S(=O)(=O)[O-])c3c4c(cc(=O)n3C)-c3ccccc3C(=O)c24)c(S(=O)(=O)[O-])c1.[Na+].[Na+],,H37Rv,,MIC,25 µg/mL
Cc1cc(CSc2ssc(=S)c2-c2ccccc2)c(CSc2ssc(=S)c2-c2ccccc2)cc1C,,H37Rv,resazurin,MIC bound,>6.25 µg/mL
COC(=O)[C@H]1[C@H]2C[C@@H]3c4[nH]c5cc(OC)ccc5c4CCN3C[C@H]2C[C@@H](OC(=O)/C=C/c2cc(OC)c(OC)c(OC)c2)[C@@H]1OC,,,,MIC50,32 µg/mL
Cc1ccc(OC/C(N)=N\NC(=O)c2ccncc2)cc1,,ATCC 35828 (pyrazinamide-resistant),,MIC,3.12 µg/mL
CC(=O)Nc1ccc(/C=N/NC(N)=S)cc1F,,Rifampicin-resistant,,MIC,≤0.1 µg/mL
CC1COc2c(N3CCN(C)CC3)c(F)cc3c(=O)c(C(=O)O)cn1c23,,ATCC35838,,MBC,1 µg/mL
COc1nc2c(c(O)c(C)c(=O)n2O[C@@H]2OCC(OC(C)=O)[C@H](OC(C)=O)C2OC(C)=O)c(=O)n1C,6.25 µg/mL,H37Rv,resazurin,inhibition,-8%
C[C@H]1[C@H](C)CC[C@]2(C(=O)O)CC[C@]3(C)C(CC[C@@H]4[C@@]5(C)C[C@H](O)CC(C)(C)[C@@H]5CC[C@]43C)[C@H]12,,MTY147,resazurin,MIC,25 µg/mL
CCCCCCCCCCCCOC(=O)c1cc(O)c(O)c(O)c1,,,,MIC50,32 µg/mL
Cl.Nc1n[nH]c(N)n1,,H37Rv,,MIC,>100 µg/mL
CN(C)c1cc(C(N)=S)ccn1,,H37Rv (INH-resistant),,MIC,512 µM
O=C(O)c1c2n(c3cc(N4CCN(Cc5ccc6c(c5)OCO6)CC4)c(F)cc3c1=O)CS2,,H37Rv,agar,MIC,1.66 µM
O=C(O)c1nn(-c2ccc([N+](=O)[O-])cc2)c(=O)[nH]1,,H37Rv,,MIC,>100 µg/mL
COc1ccc(-c2cc(-c3ccc4oc(=O)c(-c5ccccc5)c(C)c4c3)nc3c2CCc2ccccc2-3)cc1,250 µg/mL,H37Rv,agar / visual reading,inhibition,47%
NC1CCN(c2nc3c(cc2F)c(=O)c(C(=O)O)cn3-c2ccc(F)cc2F)C1,,MDR,,MIC90,>8 µg/mL
Cc1c(-c2ccccc2)c(=O)oc2ccc(-c3cc(-c4ccc(Cl)cc4)c4oc5ccccc5c4n3)cc12,250 µg/mL,H37Rv,agar / visual reading,inhibition,64%
NNC(=O)c1ccccn1,,H37Rv (drug-susceptible),,MIC,64 µM
CC(=O)Nc1ccc(/C=N/NC(N)=S)cc1Br,,,,MIC,<6.25 µg/mL
O=S(=O)(NCCNS(=O)(=O)c1ccccc1)c1ccccc1,,H37Rv,,MIC,50 µg/mL
NC(=S)c1ccc(N)cc1,,H37Rv (INH-resistant),,MIC,128 µM
COc1ccc2c3c1C(=O)CCCC3CO2,12.5 µg/mL,H37Rv,BACTEC,inhibition,0%
CC1(C)O[C@H]2OC([C@H](CCO)NCCCN[C@@H](CCO)C3O[C@@H]4OC(C)(C)O[C@@H]4[C@H]3OCc3ccccc3)[C@H](OCc3ccccc3)[C@H]2O1,,H37Rv,,MIC,50 µg/mL
O=c1cc(O)c2ccccc2[nH]1,,H37Rv,,MIC,>100 µg/mL
NNC(=O)c1cccc2c1Oc1ccccc1S2,,H37Rv,BACTEC,MIC,≥12.5 µg/mL
CC[C@H]1OC(=O)[C@H](C)[C@@H](O[C@H]2C[C@@](C)(OC)[C@@H](O)[C@H](C)O2)[C@H](C)[C@@H](O[C@@H]2O[C@H](C)C[C@H](N(C)C)[C@H]2O)[C@](C)(O)C[C@@H](C)C(=O)[C@H](C)[C@@H](O)[C@]1(C)O,,Drug-resistant,,MBC90,>8 µg/mL
CCCCCCCCCCCCSCC(O)c1ccccc1,,H37Rv,,MIC,>100 µg/mL
Cc1c(-c2ccccc2)c(=O)oc2ccc(-c3cc(-c4ccccc4)c4c(n3)-c3ccccc3C4)cc12,250 µg/mL,H37Rv,agar / visual reading,inhibition,40%
O=c1n(-c2ccccc2)c(=O)n2n1C1/C=C\C=C/C2C2CCC21,6.25 µg/mL,H37Rv,resazurin,inhibition,-12%
NC1CCN(c2c(F)cc3c(=O)c(C(=O)O)cn(C4CC4)c3c2Cl)C1,,ATCC 35830,,MIC,0.125 µg/mL
O=C(O)c1cc(N=Nc2ccc(-c3ccc(N=Nc4ccc(N=Nc5ccc(O)c(C(=O)O)c5)c5cc(S(=O)(=O)O)ccc45)cc3)cc2)ccc1O,,H37Rv,BACTEC,MIC,≥128 µg/mL
Cc1cc(C(N)=S)ccn1,,H37Rv (INH-resistant),,MIC,512 µM
C/C(=N/NC(=S)N1CCC(C)CC1)c1nccnc1C,,H37Rv,BACTEC,MIC bound,≤12.5 µg/mL
Clc1ccc(Oc2ccc(Cl)cc2)cc1,,H37Rv,,MIC,>100 µg/mL
CCOC(=O)CC(NCCCCCCCCCNC(CC(=O)OCC)[C@H]1O[C@@H]2CC(C)(C)C[C@@H]2[C@H]2CC(C)(C)C[C@H]21)[C@H]1O[C@@H]2CC(C)(C)C[C@@H]2[C@H]2CC(C)(C)C[C@H]21,,H37Rv,,MIC,25 µg/mL
CN1CCN(Cc2ccccc2NC/C=C/c2ccccc2)CC1,,B905,,MIC,>64 µg/mL
COc1ccc(-c2cc(-c3ccc4oc(=O)c(-c5ccccc5)c(C)c4c3)nc3c2oc2ccccc23)cc1OC,,H37Rv,agar / visual reading,MIC,62.5 µg/mL
O=C(O)c1c2n(c3cc(N4CCC5(CC4)OCCO5)c([N+](=O)[O-])cc3c1=O)CS2,,H37Rv,agar,MIC,0.09 µM
CCCCc1ccc(Oc2ccc(-n3[nH]c(=O)cc3NC(=O)c3cc(OC)cc(OC)c3)cc2)cc1,,H37Rv,,MIC,>100 µg/mL
Cc1ccc(N=Nc2c(C)nn(C(=S)S)c2C)cc1,12.5 µg/mL,H37Rv,BACTEC,inhibition,55%
CCOC(=O)c1ccc(N)cc1C(=O)OCC,,H37Rv,,MIC,100 µg/mL
NC(=O)c1ncn([C@@H]2O[C@H](CO)[C@@H](O)[C@H]2O)n1,,,,MIC90,64 µg/mL
CCN(CC)C(=S)S.CC[NH2+]CC,,H37Rv,,MIC,>100 µg/mL
CC1CN(c2cc3c(cc2F)c(=O)c(C(=O)O)cn3-c2ccc(F)cc2F)CCN1,,MDR,,MBC90,>8 µg/mL
CC1(C)O[C@H]2OC([C@H](CCO)NCCCCCCCCCCCCN[C@@H](CCO)C3O[C@@H]4OC(C)(C)O[C@@H]4[C@H]3OCc3ccccc3)[C@H](OCc3ccccc3)[C@H]2O1,,H37Rv,,MIC,6.25 µg/mL
CC(=O)Oc1ccccc1C(=O)O,,H37Rv,,MIC,>100 µg/mL
NC(=S)c1ccc([N+](=O)[O-])cc1,,H37Rv,,MIC,1024 µM
COc1ccc(/C=C/C(=O)c2c(O)cc(O[C@@H]3O[C@H](CO)[C@@H](O)[C@H](O)[C@H]3O[C@@H]3O[C@@H](C)[C@H](O)[C@@H](O)[C@H]3O)cc2O)cc1O,,,,MIC50,>128 µg/mL
NNC(=O)c1ccncc1,,H37Rv,agar,MIC,0.36 µM
CCc1cc(C(N)=S)ccn1,,H37Rv (INH-resistant),,MIC,256–512 µM
CCOC(=O)CC(NCCCCCCCCCCNC(CC(=O)OCC)[C@H]1O[C@@H]2CC(C)(C)C[C@@H]2[C@H]2CC(C)(C)C[C@H]21)[C@H]1O[C@@H]2CC(C)(C)C[C@@H]2[C@H]2CC(C)(C)C[C@H]21,,H37Rv,,MIC,>25 µg/mL
C(=C\c1ccccc1)/CNc1ccccc1Cn1ccnc1,,6425,,MIC,4 µg/mL
Cc1c(C(=O)NCCO)[n+](=O)c2cc(Cl)ccc2n1[O-],12.5 µg/mL,H37Rv,BACTEC,inhibition,93%
O=[N+]([O-])c1ccc2cn[nH]c2c1,,H37Rv,,MIC,100 µg/mL
Cc1cc(C)c(C(N)=S)cn1,,H37Rv (INH-resistant),,MIC,2048 µM
Cc1c(-c2ccccc2)c(=O)oc2ccc(-c3cc(-c4ccccc4)c4oc5ccccc5c4n3)cc12,250 µg/mL,H37Rv,agar / visual reading,inhibition,70%
Cc1nc(Nc2ccc([N+](=O)[O-])cc2)sc1C(=O)C=Cc1ccc(N(C)C)cc1,,H37Rv,resazurin,MIC bound,>6.25 µg/mL
CCn1cc(C(=O)O)c(=O)c2cc(F)c(N3CCNC(C)C3)c(F)c21,,11 strains (drug-resistant),,MIC50,1 µg/mL
C(=C\c1ccccc1)/CNc1ccc(Cn2ccnc2)cc1,,6431,,MIC,4 µg/mL
Ic1ccccc1OCCOCC[n+]1ccccc1,,H37Rv,,MIC,>100 µg/mL
CNC(=O)c1nc(C)c(CCC(=O)O)nc1NC,12.5 µg/mL,H37Rv,BACTEC,inhibition,1%
Cc1ccccc1OC/C(N)=N\NC(=O)c1ccncc1,,16 isolates,,MIC90,50 µg/mL
CNc1ccc(C(=O)O)cc1,,H37Rv,,MIC,100 µg/mL
CCOC(=O)C[C@H](NCCCCCCCCCN[C@@H](CC(=O)OCC)C1O[C@@H]2OC(C)(C)O[C@@H]2[C@H]1OCc1ccccc1)C1O[C@@H]2OC(C)(C)O[C@@H]2[C@H]1OCc1ccccc1,,H37Rv,,MIC,25 µg/mL
CC(O)(c1ccccc1)C(C(c1ccccc1)N1CCOCC1)N1CCOCC1,,H37Rv,,MIC,>100 µg/mL
O=C(O)c1c2n(c3cc(N4CCC5(CC4)OCCO5)c(F)cc3c1=O)CS2,,H37Rv,agar,MIC,0.99 µM
C=CN1C(=O)c2ccccc2C1=O,,H37Rv,,MIC,>100 µg/mL
CCN(CC)c1ccc2[nH]c3c(C([NH3+])=O)cc(=O)c(=O)c=3oc2c1,,H37Rv,BACTEC,MIC bound,>12.5 µg/mL
CCOC(=O)CC(NCCCCCCCCNC(CC(=O)OCC)[C@H]1O[C@@H]2CC(C)(C)C[C@@H]2[C@H]2CC(C)(C)C[C@H]21)[C@H]1O[C@@H]2CC(C)(C)C[C@@H]2[C@H]2CC(C)(C)C[C@H]21,,H37Rv,,MIC,12.5 µg/mL
O=C1N(Cl)C2C(N1Cl)N(Cl)C(=O)N2Cl,6.25 µg/mL,,resazurin,inhibition,-1%
O=C(O)c1c2n(c3cc(N4CCC(n5c(=O)[nH]c6cc(Cl)ccc65)CC4)c(F)cc3c1=O)CS2,,H37Rv,agar,MIC,1.56 µM
C[N+](C)(C)CC(=O)N/N=C(\Cc1nc2ccc(Cl)cc2[nH]c1=O)C1=Nc2cc(Cl)c(S(N)(=O)=O)cc2S(=O)(O)=N1.[Cl-],12.5 µg/mL,H37Rv,BACTEC,inhibition,18%
CCC(c1ccc(C(=O)O)cc1)c1ccc(C(=O)O)cc1,,H37Rv,,MIC,>100 µg/mL
COc1ccc(C(O)c2cc(-c3ccncc3)c(C(O)c3ccc(OC)cc3)nn2)cc1,,H37Rv,BACTEC,MIC bound,>12.5 µg/mL
Brc1cc[c]([Pb]([c]2ccccc2)([c]2ccccc2)[c]2ccccc2)cc1,,H37Rv,,MIC,>100 µg/mL
CC1=C(C)C(C#N)(C(=O)CBr)C(=N)O1,,H37Rv,BACTEC,MIC bound,>12.5 µg/mL
C(=C\c1ccccc1)/CNc1cccc(Cn2ccnc2)c1,,B905,,MIC,8 µg/mL
Cn1nc(C(N)=O)c(=O)[nH]c1=O,12.5 µg/mL,H37Rv,BACTEC,inhibition,-4%
N/C(COc1ccc(Cl)cc1)=N/NC(=O)c1ccncc1,,ATCC 35828 (pyrazinamide-resistant),,MIC,12.5 µg/mL

For reference, 9 entries again:

{"smiles": "CNC(=O)c1nc(C)c(CCC(=O)O)nc1NC", "dose": "12.5 µg/mL", "strain or isolate": "H37Rv", "method": "BACTEC", "read-out": "inhibition", "value": "1%"}
{"smiles": "O=C(O)c1c2n(c3cc(N4CCC(n5c(=O)[nH]c6cc(Cl)ccc65)CC4)c(F)cc3c1=O)CS2", "strain or isolate": "H37Rv", "method": "agar", "read-out": "MIC", "value": "1.56 µM"}
{"smiles": "NC(=S)c1ccc(N)cc1", "strain or isolate": "H37Rv (INH-resistant)", "read-out": "MIC", "value": "128 µM"}
{"smiles": "COc1cc(C(=O)C/C(CCC(=O)Nc2ccc(Cl)cc2C)=N/NC(=O)C(N)=O)ccc1O", "strain or isolate": "H37Rv", "method": "BACTEC", "read-out": "MIC bound", "value": ">12.5 µg/mL"}
{"smiles": "CCC(c1ccc(C(=O)O)cc1)c1ccc(C(=O)O)cc1", "strain or isolate": "H37Rv", "read-out": "MIC", "value": ">100 µg/mL"}
{"smiles": "Cc1ccc(Nc2cc(S(=O)(=O)[O-])c3c4c(cc(=O)n3C)-c3ccccc3C(=O)c24)c(S(=O)(=O)[O-])c1.[Na+].[Na+]", "strain or isolate": "H37Rv", "read-out": "MIC", "value": "25 µg/mL"}
{"smiles": "Cc1ccc(OC/C(N)=N\\NC(=O)c2ccncc2)cc1", "strain or isolate": "ATCC 35828 (pyrazinamide-resistant)", "read-out": "MIC", "value": "3.12 µg/mL"}
{"smiles": "CC1CN(c2cc3c(cc2F)c(=O)c(C(=O)O)cn3-c2ccc(F)cc2F)CCN1", "strain or isolate": "MDR", "read-out": "MBC90", "value": ">8 µg/mL"}
{"smiles": "Cc1cc(C)c(C(N)=S)cn1", "strain or isolate": "H37Rv (INH-resistant)", "read-out": "MIC", "value": "2048 µM"}